Reference: patent US20210284952A1, “METHODS OF APPLYING ACETATE TOXICITY AND INDUCING ACETATE UPTAKE IN MICROALGAE CULTURES” (HELIAE DEVELOPMENT LLC, priority 2016, published 2021)

System: Chlorella sp. HS26

For `CC(=O)O` [Acetic Acid, acetic acid], the internal acetate concentration (before culture medium pH lowered from 7.5 to 6.5) was “less than 500 pm” and the internal acetate concentration (one day after pH lowered to 6.5) was “over 2500 ppm”.

Like-named read-outs stand apart in the source and are kept apart here.
